This data set concerns the target Cys61 (UniProt position 61, AGYSACFIGAL). The data set is described as follows: chemical modification. The note with it: room temperature; buffers (50 mM) at different pH values; identities not stated; Reduced (dithiol) protein after DTT treatment and desalting; no ligand.

From PMC5962072, “Structural insights on the efficient catalysis of hydroperoxide reduction by Ohr: Crystallographic and molecular dynamics approaches” (PLoS ONE, 2018) come the findings set out here.

By pKa is commonly meant the negative logarithm of the acid dissociation constant. “Organic hydroperoxide resistance protein (Ohr, XfOhr) R19A (Xylella fastidiosa; R19A)”: the pKa is reported as 8.09 (± 0.11). With “Organic hydroperoxide resistance protein (Ohr, XfOhr) E51A (Xylella fastidiosa; E51A)” the figure was 7.20 (± 0.11).
